# Results: patent publication US11479582B2 (KING FAISAL UNIVERSITY, dated 2022)
# Biological target: SARS-CoV-2 spike (S) protein on replication-competent SARS-CoV-2 (SARS-CoV-2, UniProt P0DTC2)
# Experiment: cell-based or functional assay
binder,measurement,value
"HRLRQIRGIRARVVQIQKEIWRLNEVAKLLNESLIYLQE [peptide #125 (mutated HR2 39-mer, 'High Affinity')]","SARS-CoV-2 plaque inhibition in Vero E6 cells, peptide at 10 µM",75%
